Assay results as given in patent publication US20110269834A1 (priority 2008, published 2011).

Biological target: SARS-CoV PLpro (Severe acute respiratory syndrome coronavirus, UniProt P0C6X7)
Test: biochemical

For `Cc1ccc(N)cc1C(=O)N[C@H](C)c1cccc2ccccc12` [Compound 24, 5-Amino-2-methyl-N—[(R)-1-(1-naphthyl)ethyl]benzamide], the Ki was 490 ± 80 nM.
